# Experiment: Oligomerization state by sedimentation equilibrium (analytical ultracentrifuge)
# Type: physicochemical
# Details: in solution, 4° C.
# Method: Oligomerization state was assessed by using methods standard in the art for performing sedimentation equilibrium experiments and for analysis of the resultant data. In that regard, sedimentation equilibrium experiments were performed over a concentration range of synthetic peptide (1 μM to […]) as follows. Briefly, six-channel cells (12 mm optical path length) were used with an An-60 Ti rotor operated at 13,500 rpm, 18,000 rpm, 22,000 rpm, and 35,000 rpm) in an analytical ultracentrifuge at 4° C. The cell radii were scanned using 0.001 cm steps with 10 averages/scan at 3 different wavelengths (235 nm, 240 nm, 280 nm). Data obtained with solutions containing synthetic peptide was analyzed using a single species model to determine a weight-averaged molecular weight (MW). Diagnostic plots of MW/MW0 vs. rpm/rpm0 and MW vs. radial concentration were used to test for sample homogeneity. When systemic residuals or a MW higher than monomer molecular weight indicated the presence of self-association, associative models were investigated. The suitability of a model (goodness of fit) was judged by the trends observed in the residuals.
row,SMILES,Oligomerization
1,CC[C@H](C)[C@H](NC(=O)CNC(=O)[C@H](Cc1c[nH]c2ccccc12)NC(=O)[C@@H](NC(=O)[C@@H](NC(=O)[C@H](C)NC(=O)[C@H](CCC(N)=O)NC(=O)[C@H](CC(C)C)NC(=O)[C@H](C)NC(=O)[C@H](Cc1c[nH]cn1)NC(=O)[C@H](CCC(N)=O)NC(=O)[C@H](CCC(N)=O)NC(=O)[C@H](C)NC(=O)[C@H](CCC(=O)O)NC(=O)[C@@H](NC(=O)[C@H](C)NC(=O)[C@H](CCCNC(=N)N)NC(=O)[C@H](CC(C)C)NC(=O)[C@H](CC(C)C)NC(=O)[C@H](CC(N)=O)NC(=O)[C@H](CC(N)=O)NC(=O)[C@H](CCC(N)=O)NC(=O)[C@H](CCC(N)=O)NC(=O)[C@H](CCC(N)=O)NC(=O)[C@@H](NC(=O)[C@@H](NC(=O)CNC(=O)[C@H](CO)NC(=O)[C@H](CC(C)C)NC(=O)[C@H](CC(C)C)NC(=O)[C@H](CCC(N)=O)NC(=O)[C@H](CCCNC(=N)N)NC(=O)[C@H](C)NC(=O)[C@H](CCC(N)=O)NC(C)=O)[C@@H](C)CC)C(C)C)[C@@H](C)CC)[C@@H](C)O)C(C)C)C(=O)N[C@@H](CCCCN)C(=O)N[C@@H](CCC(N)=O)C(=O)N[C@@H](CC(C)C)C(=O)N[C@@H](CCC(N)=O)C(=O)N[C@@H](C)C(=O)N[C@@H](CCCNC(=N)N)C(=O)N[C@H](C(=O)N[C@@H](CC(C)C)C(=O)N[C@@H](C)C(=O)N[C@H](C(=O)N[C@@H](CCC(=O)O)C(=O)N[C@@H](CCCNC(=N)N)C(=O)N[C@@H](Cc1ccc(O)cc1)C(=O)N[C@@H](CC(C)C)C(=O)N[C@@H](CCCCN)C(=O)N[C@@H](CC(=O)O)C(=O)N[C@@H](CCC(N)=O)C(N)=O)C(C)C)[C@@H](C)CC [SEQ ID NO: 34],trimeric
2,"CC[C@H](C)[C@H](NC(=O)CNC(=O)[C@H](Cc1c[nH]c2ccccc12)NC(=O)[C@@H](NC(=O)[C@@H](NC(=O)[C@H](CC(C)C)NC(=O)[C@H](CCC(N)=O)NC(=O)[C@H](CC(C)C)NC(=O)[C@H](CC(C)C)NC(=O)[C@H](Cc1c[nH]cn1)NC(=O)[C@H](CCC(N)=O)NC(=O)[C@H](CCC(N)=O)NC(=O)[C@H](C)NC(=O)[C@H](CCC(=O)O)NC(=O)[C@@H](NC(=O)[C@H](C)NC(=O)[C@H](CCCNC(=N)N)NC(=O)[C@H](CC(C)C)NC(=O)[C@H](CC(C)C)NC(=O)[C@H](CC(N)=O)NC(=O)[C@H](CC(N)=O)NC(=O)[C@H](CCC(N)=O)NC(=O)[C@H](CCC(N)=O)NC(=O)[C@H](CCC(N)=O)NC(C)=O)[C@@H](C)CC)[C@@H](C)O)C(C)C)C(=O)N[C@@H](CCCCN)C(=O)N[C@@H](CCC(N)=O)C(=O)N[C@@H](CC(C)C)C(=O)N[C@@H](CCC(N)=O)C(=O)N[C@@H](C)C(=O)N[C@@H](CCCNC(=N)N)C(=O)N[C@H](C(=O)N[C@@H](CC(C)C)C(=O)N[C@@H](C)C(=O)N[C@H](C(=O)N[C@@H](CCC(=O)O)C(=O)N[C@@H](CCCNC(=N)N)C(=O)N[C@@H](Cc1ccc(O)cc1)C(=O)N[C@@H](CC(C)C)C(=O)N[C@@H](CCCCN)C(=O)N[C@@H](CC(=O)O)C(=O)N[C@@H](CCC(N)=O)C(N)=O)C(C)C)[C@@H](C)CC [SEQ ID NO: 27, reference compound]",Tetra-

# Experiment: Thermal stability (Tm) by CD signal at 222 nm
# Type: physicochemical
# Details: at 10 μM
# Method: Helicity was assessed by circular dichroism (“CD”) as follows. Briefly, CD spectra were obtained using a spectrometer equipped with a thermoelectric temperature controller. The spectra was obtained at 25° C. with 0.5 nanometer (nm) steps from 200 to 260 nm, with a 1.5 nm bandwith, and a typical averaging time of 4 seconds/step. After the cell/buffer blank was subtracted, spectra were smoothed using a third-order least-squares polynomial fit with a conservative window size to give random residuals. Raw ellipticity values were converted to mean residue ellipticity using standard methods, and plotted was the wavelength (from 200 to 260 nm) versus [θ]×10^−3 (degrees cm^2/dmol). Percent helicity values were then calculated using standard methods. Assessment of thermal stability was performed by monitoring the change in CD signal at 222 nm as temperature was raised in 2° C. steps, with 1 minute equilibration times. The thermal stability for each sample (e.g., synthetic peptide) was represented by the transition temperature (Tm) determined by the derivative method.
row,SMILES,Stability Tm [°C]
1,CC[C@H](C)[C@H](NC(=O)CNC(=O)[C@H](Cc1c[nH]c2ccccc12)NC(=O)[C@H](C)NC(=O)[C@@H](NC(=O)[C@H](CC(C)C)NC(=O)[C@H](CCC(N)=O)NC(=O)[C@H](CC(C)C)NC(=O)[C@H](CC(C)C)NC(=O)[C@H](Cc1c[nH]cn1)NC(=O)[C@H](CCC(N)=O)NC(=O)[C@H](CCC(N)=O)NC(=O)[C@H](C)NC(=O)[C@H](CCC(=O)O)NC(=O)[C@@H](NC(=O)[C@H](C)NC(=O)[C@H](CCCNC(=N)N)NC(=O)[C@H](CC(C)C)NC(=O)[C@H](CC(C)C)NC(=O)[C@H](CC(N)=O)NC(=O)[C@H](CC(N)=O)NC(=O)[C@H](CCC(N)=O)NC(=O)[C@H](CCC(N)=O)NC(=O)[C@H](CCC(N)=O)NC(C)=O)[C@@H](C)CC)[C@@H](C)O)C(=O)N[C@@H](CCCCN)C(=O)N[C@@H](CCC(N)=O)C(=O)N[C@@H](CC(C)C)C(=O)N[C@@H](CCC(N)=O)C(=O)N[C@@H](C)C(=O)N[C@@H](CCCNC(=N)N)C(=O)N[C@H](C(=O)N[C@@H](CC(C)C)C(=O)N[C@@H](C)C(=O)N[C@H](C(=O)N[C@@H](CCC(=O)O)C(=O)N[C@@H](CCCNC(=N)N)C(=O)N[C@@H](Cc1ccc(O)cc1)C(=O)N[C@@H](CC(C)C)C(=O)N[C@@H](CCCCN)C(=O)N[C@@H](CC(=O)O)C(=O)N[C@@H](CCC(N)=O)C(N)=O)C(C)C)[C@@H](C)CC [SEQ ID NO: 29],65
2,"CC[C@H](C)[C@H](NC(=O)CNC(=O)[C@H](Cc1c[nH]c2ccccc12)NC(=O)[C@@H](NC(=O)[C@@H](NC(=O)[C@H](CC(C)C)NC(=O)[C@H](CCC(N)=O)NC(=O)[C@H](CC(C)C)NC(=O)[C@H](CC(C)C)NC(=O)[C@H](Cc1c[nH]cn1)NC(=O)[C@H](CCC(N)=O)NC(=O)[C@H](CCC(N)=O)NC(=O)[C@H](C)NC(=O)[C@H](CCC(=O)O)NC(=O)[C@@H](NC(=O)[C@H](C)NC(=O)[C@H](CCCNC(=N)N)NC(=O)[C@H](CC(C)C)NC(=O)[C@H](CC(C)C)NC(=O)[C@H](CC(N)=O)NC(=O)[C@H](CC(N)=O)NC(=O)[C@H](CCC(N)=O)NC(=O)[C@H](CCC(N)=O)NC(=O)[C@H](CCC(N)=O)NC(C)=O)[C@@H](C)CC)[C@@H](C)O)C(C)C)C(=O)N[C@@H](CCCCN)C(=O)N[C@@H](CCC(N)=O)C(=O)N[C@@H](CC(C)C)C(=O)N[C@@H](CCC(N)=O)C(=O)N[C@@H](C)C(=O)N[C@@H](CCCNC(=N)N)C(=O)N[C@H](C(=O)N[C@@H](CC(C)C)C(=O)N[C@@H](C)C(=O)N[C@H](C(=O)N[C@@H](CCC(=O)O)C(=O)N[C@@H](CCCNC(=N)N)C(=O)N[C@@H](Cc1ccc(O)cc1)C(=O)N[C@@H](CC(C)C)C(=O)N[C@@H](CCCCN)C(=O)N[C@@H](CC(=O)O)C(=O)N[C@@H](CCC(N)=O)C(N)=O)C(C)C)[C@@H](C)CC [SEQ ID NO: 27, reference compound]",76
